Experimental data as given in patent EP0926242A1, “GLIOTOXIN DERIVATIVES AND ANTICANCER AGENT COMPRISING THE SAME” (priority 1996, dated 1998).

Test system: mouse carcinoma of the colon cells colon 26
Assay: Anticancer effect in vivo against colon 26 (Example 9 A)
Conditions: CDFI mice
Procedure: • (A) Evaluationin vivo using mouse carcinoma of the colon cells colon 26 CDFI mice (female : 4 weks age) were bought, and colon 26 subcultured in the subcutaneous tissue of the mouse was taken out, and cut into small pieces by a scissors. The cancer cells were transplanted into subcutaneous tisue of CDFI mice by a trucker. The day was assigned 0 day, and the tumor was measured by a slide caliper after 7 days. The volume of the tumor was calculated, and divided into groups (each group : n = 4). The text compound was dissolved in dimethylsulfoxide, and diluted with 5 % Tween 80- saline aqueous solution. […] The administration was carried out after 7 days, after 11 days and after 15 days or after 7 days and after 8 days from the transplantation at a rate of once per one day. 21st day from the transplantation, the volume of tumor was measured and the volume of tumor and the inhibition against tumor multiplication rate (I.R.) were calculated. The volume of tumor was calculated by the following formula. (Tumore Volume [mm)^3 (]= Minor Axis [mm])^2 × Major Axis [mm] × (1/2) [formula] • The inhibition against tumor multiplication rate (I.R.) was calculated by the following formula. I.R. [%] = {1- (Average Tumor Volume of Administration Group / Average Tumor Volume of Control Group)) × 100 [formula] • (B) Evaluation in vivo using human carcinoma of the colon cells HCT-116 Balb/c nu/nu mice (female : 5 weks age) were bought, and HCT-116 (Dainippon Seiyaku) subcultured in the subcutaneous tissue of the mouse was taken out, and cut into small pieces by a scissors. The cancer cells were transplanted into subcutaneous tissue of […] mice by a trucker. The day was assigned 0 day, and the tumor was measured by a slide caliper after 7 days. The volume of the tumor was calculated, and divided into groups (each group : n = 2). The text compound was dissolved in dimethylsulfoxide, and diluted with 5 % Tween 80- saline aqueous solution. […] The administration was carried out after 7 days, after 11 days and after 15 days from the transplantation at a rate of once per one day. 21st day from the transplantation, the volume of tumor was measured and the volume of tumor and the inhibition against tumor multiplication rate (I.R.) were calculated by the above formulas.

[1] = 2.5[mg/kg]×3 (i.p.), 7,11,15th days
[2] = 5 [mg/kg]×3 (i.p.), 7,11,15th days

COc1cccc2c1C(=O)c1c(O)c3c(c(O)c1C2=O)C[C@@](O)(C(=O)CO)C[C@@H]3O[C@H]1C[C@H](N)[C@H](O)[C@H](C)O1 [Adriamycin, reference compound]
day of I.R.Max (10 [mg/kg]×2 (i.v.), 7, 14th days): 21 days

CN1C(=O)[C@]23Cc4ccccc4N2C(=O)[C@]1(CO)SS3 [Compound of Example 3, (3S, 10aR)―2,3-dihydro―3―(hydroxymethyl)―2― methyl―10H―3,10a―epidithiopyrazino[1,2―a]indole― 1,4―dione]
day of I.R.Max [1]: 8 days
day of I.R.Max [2]: 8 days

CC(=O)OC1C=CC=C2CC34SSC(CO)(C(=O)N3C21)N(C)C4=O (stereo not drawn) [acetylgliotoxin]
day of I.R.Max [1]: 10 days
day of I.R.Max [2]: 9 days
day of I.R.Max (10 [mg/kg]×2 (i.p.), 7,8th days): 10 days
